Measurements: patent EP2143422A1, “Ophthalmic compositions containing gemifloxacin for the treatment of ocular infections” (S.I.F.I - SOCIETÀ INDUSTRIA FARMACEUTICA ITALIANA - S.P.A., priority 2008, dated 2010)

Assay: In vivo pharmacokinetic test: ocular tissue distribution after single ophthalmic administration
Design: species or system pigmented rabbits
Method: The penetration capacity of gemifloxacin was determined in the cornea, conjunctiva, aqueous humour and iris-ciliary body after single ophthalmic administration (30 µl) of the solution at 0.3% in both eyes of pigmented rabbits. The tissues were collected at the following times: 15 minutes, 30 minutes, 1, 2, 4, 8, 12, 24 and 48 hours. Quantitative analysis of the samples was carried out by a LC/MS/MS method after suitable extraction of the active principle from the tissue and expressed as µg/g or µg/ml of tissue.

[1] = inhibition quotient = Cmax in tissue/MIC90 for St. aureus, single administration of 0.3% solution

CO/N=C1\CN(c2nc3c(cc2F)c(=O)c(C(=O)O)cn3C2CC2)CC1CN (racemic) [Gemifloxacin, (R,S)-7-(3-aminomethyl-4-methoxyiminopyrrolidin-1yl)-1-cyclopropyl-6-fluoro-4-oxo-1,4-dihydro-1,8-naphthyridin-3-carboxylic acid]
IQs in the various tissues (inhibition quotient (tissue concentration/MIC90), single administration): > 1
IQconjunctiva [1]: 15.3
IQcornea [1]: 41.1
IQiris-ciliary body [1]: 7.2
